Sequence variants of PSTVd loop 6 after infection

From the data files of Wu et al. 2024, doi:10.1371/journal.ppat.1012142.

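Three N. benthamiana plants were inoculated with the whole mutant pool. Samples came from the inoculated region at 5 days, the leaf margin at 10 and upper systemic leaves at 12.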

Region: loop 6 of PSTVd (intermediate strain), upper and lower strand joined, each 5' to 3', the first 5 letters being the upper strand, closing pairs included. Wild type: UGACCGCGAG. Varied positions (N): UNNNCGNNNG.

Numbers give reads per thousand; 0 = not seen among the reads, higher = more abundant.
Each value is the mean of three plants.
"Pool" is the share in the plasmid pool used as inoculum, on the same scale.
The inoculated region was read from the minus strand, the other sites from the plus strand.
Samples held 36,220 to 57,551 reads, so the smallest values rest on one or two reads.
Sequences that differ at fixed positions probably stem from PCR or sequencing errors, and defective variants can be carried along by functional ones.
For reference, wild type rose from 20.7 per thousand in the pool to 195, 198, 203 (inoculated region), 629, 591, 734 (leaf margin) and 942, 870, 868 (systemic leaves).

| # | sequence | pool | inoculated region | leaf margin | systemic leaves |
|---|---|---|---|---|---|
| 1 | UCAGCGGUUG | 0.235 | 0.101 | 0 | 0 |
| 2 | UGGACGCCCG | 0.588 | 0.121 | 0 | 0 |
| 3 | UAAGCGCGAG | 0.235 | 0.144 | 0.406 | 0.0877 |
| 4 | UGGACGGACG | 0.301 | 0.114 | 0.0232 | 0 |
| 5 | UGGCCGAGAG | 0.314 | 0.662 | 0.0844 | 0.0203 |
| 6 | UCCACGCGAU | 0.0131 | 0.0666 | 0 | 0 |
| 7 | UAUCCGAUCG | 0.588 | 0.0887 | 0 | 0 |
| 8 | UCGACGCAAG | 0.144 | 0.138 | 0 | 0 |
| 9 | UCCCCGUCGG | 0.301 | 0.101 | 0.0176 | 0.0137 |
| 10 | UCCUCGCUGG | 0.144 | 0.0771 | 0 | 0 |
| 11 | UCACCGCGGG | 0.157 | 0.101 | 0.0155 | 0.0195 |
| 12 | UGGCCGAGCG | 0.261 | 0.180 | 0.00920 | 0 |
| 13 | UUCCCGGUUG | 0.275 | 0.112 | 0 | 0 |
| 14 | UCAGCGGCCG | 0.144 | 0.0949 | 0.00773 | 0 |
| 15 | UGACCGCGAU | 0.0131 | 0.301 | 1.14 | 1.02 |
| 16 | UGUACGCAAG | 0.0915 | 0.774 | 0.0504 | 0 |
| 17 | UAAUCGUGUG | 0.431 | 0.114 | 0.00773 | 0 |
| 18 | UUGCCGAGGG | 0.405 | 0.148 | 0.00773 | 0 |
| 19 | UGUUCGGUUG | 0.301 | 0.0474 | 0 | 0 |
| 20 | UAUCCGACUG | 0.405 | 0.0656 | 0.0155 | 0 |
| 21 | UCAACGACGG | 0.196 | 0.0599 | 0.00773 | 0 |
| 22 | UGGGCGCGGG | 0.144 | 0.0773 | 0.00773 | 0 |
| 23 | UAAACGUUAG | 0.131 | 0.485 | 0.124 | 0.0136 |
| 24 | UCCACGUAUG | 0.209 | 0.0589 | 0.109 | 0 |
| 25 | UAGGCGUUCG | 0.366 | 0.0717 | 0 | 0.00684 |
| 26 | UUUGCGAGAG | 0.222 | 0.119 | 0.00773 | 0 |
| 27 | UCGACGUCCG | 0.261 | 0.0717 | 0 | 0 |
| 28 | UAUACGCUCG | 0.405 | 0.0826 | 0 | 0 |
| 29 | UCUGCGCCUG | 0.379 | 0.0590 | 0 | 0.0889 |
| 30 | UUCGCGAGCG | 0.353 | 0.0656 | 0 | 0.00684 |
| 31 | UAUGCGAACG | 0.222 | 0.102 | 0 | 0 |
| 32 | UUACCGUUCG | 0.314 | 0.126 | 0.0184 | 0 |
| 33 | UCCCCUUACG | 0.0131 | 0 | 0 | 0 |
| 34 | UCCUCGUUGG | 0.261 | 0.107 | 0 | 0 |
| 35 | UAUACCGCAG | 0.0131 | 0 | 0 | 0 |
| 36 | UUUGCGUCUG | 0.248 | 0.0598 | 0 | 0 |
| 37 | UGUACGAAUG | 0.340 | 0.136 | 0 | 0 |
| 38 | UUUGCGACUG | 0.144 | 0.0955 | 0 | 0 |
| 39 | UGUCCGGAUG | 0.366 | 0.0650 | 0.00920 | 0 |
| 40 | UGUCCGGCGG | 0.131 | 0.0838 | 0 | 0 |
| 41 | UUUGCGUCCG | 0.248 | 0.0766 | 0.00773 | 0 |
| 42 | UACUCGGCAG | 0.170 | 0.713 | 0.0946 | 0 |
| 43 | UGUUCGAACG | 0.275 | 0.132 | 0 | 0 |
| 44 | UACACGUAAG | 0.0523 | 0.606 | 0.0339 | 0 |
| 45 | UCUCCGAUUG | 0.248 | 0.113 | 0.00773 | 0 |
| 46 | UACCCGAGGG | 0.222 | 0.132 | 0 | 0 |
| 47 | UCUUCGGGCG | 0.314 | 0.0706 | 0 | 0 |
| 48 | UGAUCGCCUG | 0.314 | 0.106 | 0.0330 | 0 |

Excerpt, the final 3 entries:

UACCCGAGGG (pool 0.222) gave inoculated region 0.132; leaf margin 0; systemic leaves 0.
UCUUCGGGCG (pool 0.314) gave inoculated region 0.0706; leaf margin 0; systemic leaves 0.
UGAUCGCCUG (pool 0.314) gave inoculated region 0.106; leaf margin 0.0330; systemic leaves 0.